ΔHdiss data for one molecule are collected here from article PMC3097154, “Antiviral activity of α-helical stapled peptides designed from the HIV-1 capsid dimerization domain” (Retrovirology, 2011).

This series deals with wild type CTD (wtCTD) of HIV-1 CA. The series is described as follows: ITC dilution of CTD dimers in presence of peptide. The format is binding. The settings on record: pH 7.3. Here is the method:
Dilution of CTD by sequential ITC injections into buffer, pH 7.3, 30°;C gave a series of endothermic heat pulses (Figure 4) consistent with dissociation of protein oligomers modeled as dimers, with dimer dissociation constant (Kdiss) ~15 μM and dissociation enthalpy (ΔHdiss) of 10.7 kcal mole^-1. […] For such a mechanism, the apparent dimer dissociation constant should depend on the free peptide (inhibitor) concentration ([I]) and binding affinity (KI) as follows: [drawing 1]
or an approximate form that might be valid at high inhibitor concentrations: [drawing 2]
where Ci is the total peptide inhibitor concentration in the mixture. This analysis is, however, further complicated by apparent self-association of the peptide (see NMR section) that reduces the availability of free monomer (lower [I]) at higher concentrations and thus leads to underestimation of peptide binding affinities and a concentration dependence of apparent Ki.
The influence of the peptides on dimer dissociation of wild type CTD (wtCTD) was investigated by ITC (MicroCal VP-ITC) following established protocols. Proteins were exhaustively dialyzed against the 25 mM sodium phosphate buffer (pH 7.3) prior to experimental measurements. In a typical experiment, the ITC injection syringe was loaded with 250 μM protein, dissolved in dialysis buffer or dialysis buffer/peptide mixture and the calorimetric cell (ca. 1.4 ml active volume) initially contained only the identical buffer mixture. Typically titrations consisted of 28 injections of 10 μl, with 240-s equilibration between injections. The thermodynamic parameters were obtained and data were analyzed using MicroCal Origin 7.0 software, using an updated and corrected (June 2008) version of the dissociation analysis procedure, validated by comparison with earlier analysis methods.

Positions of bridges follow the written chain, without caps; N, C: chain ends. Non-standard residues stand in square brackets, D forms with d. Residues, ends and D or L forms follow the SMILES beside them. S5 = C=CCCC[C@](C)(N)C(=O)O

On to `CSCC[C@@H]1NC(=O)[C@H](Cc2c[nH]c3ccccc23)NC(=O)[C@@](C)(NC(=O)[C@H](CCCCN)NC(=O)[C@@H](NC(=O)[C@H](C)NC(=O)[C@H](CCC(N)=O)NC(=O)[C@H](C)N)C(C)C)CCC/C=C\CCC[C@@](C)(C(=O)N[C@H](C(=O)N[C@@H](CC(C)C)C(=O)N[C@@H](CC(C)C)C(=O)N[C@H](C(=O)N[C@@H](C)C(=O)N[C@@H](CCCCN)C(=O)N[C@@H](CCCCN)C(=O)N[C@@H](CCCCN)C(=O)O)C(C)C)[C@@H](C)O)NC(=O)[C@H]([C@@H](C)O)NC1=O` [NYAD-203] (H-AQAVK[S5]WMT[S5]TLLVAKKK-OH; staple (Z) 6-10; N-terminus and C-terminus assumed), for which the ΔHdiss runs as follows: (CI 50 μM NYAD-203, 30°C) 9.1 (±0.3) kcal mole^-1; (CI 200 μM NYAD-203, 30°C) 10.8 (±0.2) kcal mole^-1; (CI 350 μM NYAD-203, 30°C) 10.9 (±0.2) kcal mole^-1.
